PubChem BioAssay AID1259414, Drosophila RNAi Screening Center, 2018
The screen tested about 24,000 reagents; below is an unselected part of those that have a named target and a result. Over the whole deposit, about 1,210 (5%) got an active call. 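Inactive calls also include excluded dsRNAs with several or no targets, genes unexpressed in JW18, and well A1, regardless of score.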 Unmarked entries are inactive. Reagents against one gene are numbered here.

Screen: 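Genome-wide screen for host control of endosymbiont load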 (primary screen)
Cells: Drosophila JW18 cells infected with Wolbachia
Reagent: long dsRNA against Drosophila genes, 0.25 µg dsRNA per well of a 384-well plate
Duration: 5 days
Conditions: cells persistently infected with Wolbachia before knock-down; no added drug
Measured: 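Automated imaging of bacterial rRNA staining divided by host cell count, reported as plate-normalised robust z-score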
Scale: Wolbachia per cell robust z: higher = more Wolbachia per host cell than the plate typical
Rule for the call: 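Hit when robust z is 1.5 or more, or -1.5 or less, in at least two of three replicates; excludes dsRNAs with several or no targets, genes not expressed in JW18 and well A1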

Against CG32235, the entry reads Wolbachia per cell robust z, rep 1 = 0.745; Wolbachia per cell robust z, rep 2 = 0.953; Wolbachia per cell robust z, rep 3 = 0.826. Depletion of Osi21 came out at: Wolbachia per cell robust z, rep 1 = -0.718; Wolbachia per cell robust z, rep 2 = 0.966; Wolbachia per cell robust z, rep 3 = -0.731. For lncRNA:iab4 #1, the values are Wolbachia per cell robust z, rep 1 = -1.15; Wolbachia per cell robust z, rep 2 = 0.87; Wolbachia per cell robust z, rep 3 = 0.319. lncRNA:iab4 #2 showed Wolbachia per cell robust z, rep 1 = 0.651; Wolbachia per cell robust z, rep 2 = 1.22; Wolbachia per cell robust z, rep 3 = 0.71. Depletion of CG17292 #1 gave: Wolbachia per cell robust z, rep 1 = -0.0951; Wolbachia per cell robust z, rep 2 = -0.123; Wolbachia per cell robust z, rep 3 = -2.4. Against CG17292 #2 the deposit lists Wolbachia per cell robust z, rep 1 = 0.228; Wolbachia per cell robust z, rep 2 = 0.0602; Wolbachia per cell robust z, rep 3 = 0.377.

Silencing of CG17919 #1 gave: Wolbachia per cell robust z, rep 1 = -1.84 (active); Wolbachia per cell robust z, rep 2 = -6.54; Wolbachia per cell robust z, rep 3 = -1.17. With knock-down of CG17919 #2, the screen gave Wolbachia per cell robust z, rep 1 = 0.0639; Wolbachia per cell robust z, rep 2 = 0.625; Wolbachia per cell robust z, rep 3 = 0.709.

Reprinted from the listing for reference:
lncRNA:iab4 #2 | Wolbachia per cell robust z, rep 1 = 0.651; Wolbachia per cell robust z, rep 2 = 1.22; Wolbachia per cell robust z, rep 3 = 0.71
CG17292 #1 | Wolbachia per cell robust z, rep 1 = -0.0951; Wolbachia per cell robust z, rep 2 = -0.123; Wolbachia per cell robust z, rep 3 = -2.4

Next reagents follow.
After knock-down of Ak6 #1 the results were Wolbachia per cell robust z, rep 1 = -0.613; Wolbachia per cell robust z, rep 2 = -0.168; Wolbachia per cell robust z, rep 3 = -2.33. Knock-down of Ak6 #2 came out at: Wolbachia per cell robust z, rep 1 = -2.68 (active); Wolbachia per cell robust z, rep 2 = -0.723; Wolbachia per cell robust z, rep 3 = -2.44. CG14926 gave Wolbachia per cell robust z, rep 1 = -1.58; Wolbachia per cell robust z, rep 2 = 0.364; Wolbachia per cell robust z, rep 3 = 0.539. For CG13838 #1, the values are Wolbachia per cell robust z, rep 1 = -0.398; Wolbachia per cell robust z, rep 2 = 0.618; Wolbachia per cell robust z, rep 3 = -3.15. Against CG13838 #2, the entry reads Wolbachia per cell robust z, rep 1 = -3.97; Wolbachia per cell robust z, rep 2 = -0.552; Wolbachia per cell robust z, rep 3 = -2.08.
